A mixed list of measured activities; the numbers were collected in NIAID ChemDB.

All rows: whole-cell or culture tests; species: Mycobacterium tuberculosis

A number after MIC or MFC names an inhibition level or a share of isolates. a–b is a range or a potency band. MIC bound: limit read from a one-dose screen. Inhibition is in % at the dose shown (toxicity tests: loss of growth or viability). Blank or dashed fields: not listed here. Lines come from different laboratories, so protocols vary. ECn is the concentration giving n% inhibition of infection, replication or growth.

SMILES,strain or isolate,mutations,cells,read by,setting,measure,tested at,value
O=C(/C=C/c1ccc(Cl)c(Cl)c1)Oc1ccc(/C=C2\CCCCC2=O)cc1,H37Rv,-,-,-,-,inhibition,12.5 µg/mL,47%
O=c1ccc2cc3ccoc3c(OCCOCCOCCOCCOc3c4occc4cc4ccc(=O)oc34)c2o1,H37Rv,-,-,BACTEC,-,inhibition,12.5 µg/mL,14%
CC(NNC(=O)c1ccncc1)c1cccc(C(F)(F)F)c1,H37Rv (isoniazid-resistant),-,-,-,-,MIC,-,>31.25 µg/mL
NC(=O)c1ccc[n+](Cc2ccc(Cl)cc2Cl)c1.[Cl-],H37Rv,-,-,BACTEC,-,MIC,-,≥12.5 µg/mL
CCCCCCCCCOc1ccc(NC(=O)OCCN2CCCCC2)cc1,My 331/88,-,-,-,-,MIC,-,16 µM
CO[C@H]1/C=C/O[C@@]2(C)Oc3c(C)c(O)c4c(O)c(c(/C=N/N(C)C)c(O)c4c3C2=O)NC(=O)/C(C)=C\C=C\[C@H](C)[C@H](O)[C@@H](C)[C@@H](O)[C@@H](C)[C@H](OC(C)=O)[C@@H]1C,H37Rv,-,-,-,-,MIC,-,0.05 µg/mL
CC(C)c1ccc2c(c1)CC[C@H]1[C@](C)(CNCCNC3CCCCCCC3)CCC[C@]21C,-,-,-,-,-,MIC,-,25 µM
CO[C@H]1/C=C/O[C@@]2(C)Oc3c(C)c(O)c4c(O)c(c(/C=N/NS(=O)(=O)c5ccc(C)cc5)c(O)c4c3C2=O)NC(=O)/C(C)=C\C=C\[C@H](C)[C@H](O)[C@@H](C)[C@@H](O)[C@@H](C)[C@H](OC(C)=O)[C@@H]1C,H37Rv,-,-,-,-,MIC,-,1 µg/mL
CC1C=CC(C)N(C(N)=O)N1C(N)=O,H37Rv,-,-,BACTEC,-,inhibition,12.5 µg/mL,-3%
CCCCCCCCOc1ccccc1NC(=O)OCCN1CCCCC1,My 331/88,-,-,-,-,MIC,-,32 µM
O=C(/C=C/c1ccc(Cl)cc1)Oc1ccc(/C=C2\CCCCC2=O)cc1,H37Rv,-,-,-,-,EC50,-,>12.5 µg/mL
CCN(CC)CCNc1n[n+]([O-])c2ccccc2[n+]1[O-],H37Rv,-,-,BACTEC,-,inhibition,6.25 µg/mL,31%
NNC(=O)c1ccncc1,Isolate 2219,-,-,-,-,MIC,-,>4 µg/mL
NC(N)=NC1=C(Cl)C(=O)c2ccccc2C1=O,H37Rv,-,-,BACTEC,-,MIC bound,-,>12.5 µg/mL
CCCOc1cccc(NC(=O)OCCN2CCCCC2)c1,My 331/88,-,-,-,-,MIC,-,250 µM
CC(C)c1ccc2c(c1)CC[C@H]1[C@](C)(CNCCNCCCO)CCC[C@]21C,-,-,-,-,-,MIC,-,25 µM
CO[C@H]1/C=C/O[C@@]2(C)Oc3c(C)c(O)c4c(O)c(c(/C=N/N5CCN(C6CCCC6)CC5)c(O)c4c3C2=O)NC(=O)/C(C)=C\C=C\[C@H](C)[C@H](O)[C@@H](C)[C@@H](O)[C@@H](C)[C@H](OC(C)=O)[C@@H]1C,H37Ra,-,-,-,-,Mean MIC,-,≤0.006 µg/mL
C(=C\c1nnc(CON=C(c2ccccc2)c2ccccc2)o1)/c1ccccc1,-,-,-,-,-,inhibition,12.5 µg/mL,7–56%
O=C(NNCc1cccc(C(F)(F)F)c1)c1ccncc1,Erdman,-,Macrophages,colony count,inside macrophages,EC50,-,<0.005 µg/mL
CN(C)CC1CCC/C(=C\c2ccc(OC(=O)/C=C/c3ccc(Br)cc3)cc2)C1=O,H37Rv,-,-,-,-,inhibition,12.5 µg/mL,99%
C/C(=N\OCc1nnc(/C=C/c2ccccc2)o1)c1ccccc1,-,-,-,-,-,inhibition,12.5 µg/mL,7–56%
Cc1onc(-c2ccccc2Cl)c1C(=O)N[C@@H]1C(=O)N2[C@@H]1SC(C)(C)[C@@H]2C(=O)O,H37Rv,-,-,-,-,Median MIC,-,256 µg/mL
NNC(=O)c1ccncc1,1620-6,-,-,-,-,MBC,-,0.05 µg/mL
O=C(CCCC(=O)NNC(=O)Nc1ccc(N=Nc2ccccc2)cc1)NNC(=O)Nc1ccc(N=Nc2ccccc2)cc1,H37Rv,-,-,BACTEC,-,MIC bound,-,>12.5 µg/mL
Cc1ccc2c(=O)n(-c3ccc(Br)cc3)c(=O)oc2c1,CNCTC MY331/88,-,-,-,-,MIC,-,62 µM
COc1nc2ccc(Br)cc2cc1[C@@H](c1ccccc1)[C@@](O)(CCN(C)C)c1cccc2ccccc12,35822,Isoniazid-resistant,-,broth dilution,-,MIC80,-,<2 µM
CCCCCCCCOc1cccc(NC(=O)OCCN2CCCCC2)c1,My 331/88,-,-,-,-,MIC,-,16 µM
C/C(=N\OCCc1nnc(-c2ccc(N)cc2)o1)c1ccccc1,-,-,-,-,-,inhibition,12.5 µg/mL,7–56%
CCCCOc1ccc(NC(=S)Nc2ccc(OCCN(CC)CC)cc2)cc1,H37RV #225,-,-,-,-,MIC,-,125 µg/mL
CCCCCCCCCCCNCCNCCc1ccc(OC)cc1,-,-,-,-,-,MIC,-,25 µM
CC(=O)OC1CN2CCC(O)C2C(O)C1O,H37Rv,-,-,BACTEC,-,inhibition,12.5 µg/mL,0%
Nc1nnc(CCON=C(c2ccccc2)c2ccccc2)o1,-,-,-,-,-,inhibition,12.5 µg/mL,7–56%
O=C1C[C@@H](c2ccc(O)cc2)Oc2cc(O)cc(O)c21,H37Rv,-,-,BACTEC,-,MIC bound,-,>128 µg/mL
COc1ccc(CNCCNCc2ccc(OC(F)(F)F)cc2)c(OC)c1,-,-,-,-,-,MIC,-,50 µM
CN(NC(=O)C(=O)NCc1ccco1)C(=O)Nc1ccc(Cl)cc1,H37Rv,-,-,BACTEC,-,inhibition,12.5 µg/mL,12%
c1ccc(C(=NOCCc2nnc(N3CCOCC3)o2)c2ccccc2)cc1,-,-,-,-,-,inhibition,12.5 µg/mL,7–56%
COc1ccccc1CCNCCN1CC2(C)CC1CC(C)(C)C2,-,-,-,-,-,MIC,-,50 µM
O=C1/C(=C/c2ccc(OC(=O)c3ccccc3)cc2)CCC/C1=C\c1ccc(OC(=O)c2ccccc2)cc1,H37Rv,-,-,-,-,inhibition,12.5 µg/mL,0%
O=C1CC(SC(=S)N2CCOCC2)C(=O)N1,RMP-R,-,-,-,-,MIC,-,3.2 µg/mL
CC[C@@H](CO)NCCN[C@@H](CC)CO,MDR15,-,-,broth dilution / resazurin,-,MIC,-,32 µg/mL
CCCOc1ccc(NC(=O)OCCN2CCCCCC2)cc1,My 331/88,-,-,-,-,MIC,-,125 µM
CC(C)=CCOc1c2ccoc2cc2oc(=O)ccc12.NNC(=O)c1ccncc1,H37Rv clinical isolate CRY5,Isoniazid-resistant,-,agar,-,MIC100,-,25 µg/mL
O=C(N/N=C/c1cccc2ccccc12)c1ccc(O)cc1,H37Rv,-,-,BACTEC,-,inhibition,12.5 µg/mL,6%
CC[C@H]1OC(=O)[C@H](C)[C@@H](O[C@H]2C[C@@](C)(OC)[C@@H](O)[C@H](C)O2)[C@H](C)[C@@H](O[C@@H]2O[C@H](C)C[C@H](N(C)C)[C@H]2O)[C@](C)(OC)C[C@@H](C)C(=O)[C@H](C)[C@@H](O)[C@]1(C)O,H37Ra,-,-,-,-,Mean MIC,-,1.88 µg/mL
CC(NNC(=O)c1ccncc1)c1ccc(Cl)c(Cl)c1,Isoniazid-resistant,-,-,-,-,MBC,-,>50 µg/mL
CCOC(=O)c1ccc(-n2c(=O)oc3ccc(Cl)cc3c2=O)cc1,CNCTC MY331/88,-,-,-,-,MIC,-,16 µM
C=C(C)C(=O)OC1CC2(C)OC(=CC2=O)C(C)CC2OC(=O)C(=C)C12,H37Rv,-,-,BACTEC,-,inhibition,12.5 µg/mL,27%
CO[C@H]1/C=C/O[C@@]2(C)Oc3c(C)c(O)c4c(O)c(c(/C=N/N5CCCCCC5)c(O)c4c3C2=O)NC(=O)/C(C)=C\C=C\[C@H](C)[C@H](O)[C@@H](C)[C@@H](O)[C@@H](C)[C@H](OC(C)=O)[C@@H]1C,H37Rv,-,-,-,-,MIC,-,0.02 µg/mL
C[C@@H](NCCNCCC(c1ccccc1)c1ccccc1)C1CCCCC1,-,-,-,-,-,MIC,-,6.25 µM
CCn1cc(C(=O)O)c(=O)c2cc([N+](=O)[O-])c3cccnc3c21,BCG,gyrA mutation A90V,-,-,-,MIC90,-,2.67 µM
CCCCN(CCCC)N=Cc1c2c(O)c3c(O)c(C)c4c(c3c1O)C(=O)[C@@](C)(O/C=C/[C@H](OC)[C@@H](C)[C@@H](OC(C)=O)[C@H](C)[C@H](O)[C@H](C)[C@@H](O)[C@@H](C)/C=C/C=C(/C)C(=O)N2)O4,H37Rv,-,-,-,-,MIC,-,0.5 µg/mL
CCN(CC)CCOc1ccc(NC(=S)Nc2ccc(OCC(C)C)cc2)cc1,Ravenel #226,-,-,-,-,MIC,-,16.6 µg/mL
COc1ccccc1CCNCCN[C@H]1C[C@H]2CC[C@]1(C)C2(C)C,-,-,-,-,-,MIC,-,50 µM
C[C@]1(COc2ccc(N3CCC(Oc4ccc(OC(F)(F)F)cc4)CC3)cc2)Cn2cc([N+](=O)[O-])nc2O1,H37Rv (RFP-resistant),-,-,-,-,MIC,-,0.006 µg/mL
CCN(CC)CCn1c2ccccc2c2cc3cnccc3c(C)c21,H37Rv,-,-,resazurin,-,inhibition,6.25 µg/mL,99%
CCCCOc1ccc(NC(=S)Nc2ccc(N(C)C)cc2)cc1,H37RV #225,-,-,-,-,MIC,-,3.9 µg/mL
CO[C@H]1/C=C/O[C@@]2(C)Oc3c(C)c(O)c4c(O)c(c(/C=N/N5CCN(C)CC5)c(O)c4c3C2=O)NC(=O)/C(C)=C\C=C\[C@H](C)[C@H](O)[C@@H](C)[C@@H](O)[C@@H](C)[C@H](OC(C)=O)[C@@H]1C,ATCC 27294,-,-,broth dilution,-,MIC80,-,0.04 µM
O=C(/C=C/c1ccccc1)Oc1ccc(/C=C2\CCCCC2=O)cc1,H37Rv,-,-,-,-,EC50,-,>12.5 µg/mL
C/C(=N\OCc1nnc(Nc2ccccc2)o1)c1ccccc1,-,-,-,-,-,inhibition,12.5 µg/mL,7–56%
COc1ccc2oc(=O)n(-c3ccccc3)c(=O)c2c1,CNCTC MY331/88,-,-,-,-,MIC,-,250 µM
Cc1cccnc1NN,H37Rv,-,-,BACTEC,-,MIC,-,≥12.5 µg/mL
Clc1ccc(-c2nnc(CON=C(c3ccccc3)c3ccccc3)o2)cc1,-,-,-,-,-,inhibition,12.5 µg/mL,7–56%
CC1NC(C(=O)O)Cc2c1[nH]c1ccccc21,H37Rv,-,-,BACTEC,-,inhibition,12.5 µg/mL,15%
C/C(=N\NC(=O)c1ccncc1)c1ccccc1,Erdman,-,-,-,-,MIC,-,0.1 µg/mL
Nc1ccc(C(=O)Nc2ccc(N=Nc3ccc(S(=O)(=O)O)cc3)cc2)cc1,H37Rv,-,-,BACTEC,-,MIC bound,-,>12.5 µg/mL
CN[C@@H]1[C@H](O[C@H]2[C@H](O[C@H]3[C@H](O)[C@@H](O)[C@H](N=C(N)N)[C@@H](O)[C@@H]3N=C(N)N)O[C@@H](C)[C@]2(O)C=O)O[C@@H](CO)[C@H](O)[C@H]1O,19000,Rifampicin-resistant,-,broth dilution,-,MIC80,-,0.3 µM
C[C@@H]1O[C@@H](O[C@@H]2C[C@H](c3ccc4c(c3O)C(=O)C3=C(C4=O)[C@@]4(O[C@H]5CC[C@H](O)[C@H](C)O5)C(=O)C[C@@](C)(O)C[C@@]4(O)C=C3)O[C@H](C)[C@H]2O)CC[C@@H]1O[C@H]1C[C@@H](O)[C@H](O)[C@@H](C)O1,H37Rv,-,-,BACTEC,-,MIC,-,>4 µg/mL
CCCCCCOc1cccc(NC(=O)OCCN(C)C)c1,My 331/88,-,-,-,-,MIC,-,32 µM
OC1(CNCCNCCCCc2ccccc2)CCCCC1,-,-,-,-,-,MIC,-,25 µM
CCCN(CCC)N=Nc1c(C(N)=O)n[nH]c1C,H37Rv,-,-,BACTEC,-,MIC bound,-,>12.5 µg/mL
C=CCNc1nnc(CCO/N=C(\C)c2ccccc2)o1,-,-,-,-,-,inhibition,12.5 µg/mL,7–56%
COc1ccccc1NC(=O)OCCN(C)C,My 331/88,-,-,-,-,MIC,-,>1000 µM
C/C(=N\NC(=O)c1ccncc1)c1ccccc1F,Ethionamide-resistant,-,-,-,-,MIC,-,>6.25 µg/mL
[N-]=[N+]=N[C@@H]1C[C@@H](CO)O[C@H]1n1cnc2c(N)ncnc21,H37Rv,-,-,BACTEC,-,inhibition,12.5 µg/mL,0%
CCOc1ccccc1NC(=O)OCC[NH+]1CCCC1,My 331/88,-,-,-,-,MIC,-,>1000 µM
COC(=O)C1=C(O)C2N=CC=CC2C(=O)N1.Cl,H37Rv,-,-,BACTEC,-,MIC bound,-,>12.5 µg/mL
CC(NNC(=O)c1ccncc1)c1ccc(F)cc1,Ethionamide-resistant,-,-,-,-,MIC,-,>50 µg/mL
CO[C@H]1/C=C/O[C@@]2(C)Oc3c(C)c(O)c4c(O)c(c(/C=N/N=C(N)N)c(O)c4c3C2=O)NC(=O)/C(C)=C\C=C\[C@H](C)[C@H](O)[C@@H](C)[C@@H](O)[C@@H](C)[C@H](OC(C)=O)[C@@H]1C,H37Rv,-,-,-,-,MIC,-,5 µg/mL
CCOC(=O)c1cn(C)c2c(cc([N+](=O)[O-])c3cccnc32)c1=O,BCG,gyrA mutation A90V,-,-,-,MIC90,-,2.35 µM
O=c1oc2ccc(Cl)cc2c(=O)n1-c1cccc(F)c1,CNCTC MY331/88,-,-,-,-,MIC,-,16 µM
CO[C@H]1/C=C/O[C@@]2(C)Oc3c(C)c(O)c4c(O)c(c5c(c4c3C2=O)NC2(CCN(CC(C)C)CC2)N=5)=NC(=O)/C(C)=C\C=C\[C@H](C)[C@H](O)[C@@H](C)[C@@H](O)[C@@H](C)[C@H](OC(C)=O)[C@@H]1C,H37Ra,-,-,-,-,Mean MIC,-,≤0.006 µg/mL